# Measurements from patent US20230287087A1 (MAX PLANCK GESELLSCHAFT ZUR F RDERUNG DER WISSENSCHAFTEN E V, published 2023).
# B1: Re11E11 (VHH)
# VHH: QVQLVESGGGSVEAGGSLRLSCAASGRTFNNYNIVWFRQAPGKEREFVAAINWNGGSTSYANSVKGRFAVSRDNAKNTVYLQMNNLKHEDTAEYLCYTVGPEGDYWGQGTQVTVSS
# B2: Re5C08 (VHH)
# VHH: B1 VHH with N31D, I34M, N52K, S57N, N62D
# B3: Re6D09 (VHH)
# VHH: B1 VHH with I34M, N62A, R72I, V79L
# B4: Re11C10 (VHH)
# VHH: B1 VHH with F29L, N30D, I34A, G56S, S57N, A61G
# B5: Re7A01 (VHH)
# VHH: QVQLVESGGGLVQAGGSLRLSCAASGRTFSSYAMGWFRQAPGKEREFVATISFSGSTSYAGHVKGRFTISRDNAKNTVYLQMNSLKPEDTAVYYCHAVTRASDQDGGMDYWGQGTQVTVSS
# B6: Re7D05 (VHH)
# VHH: QVQLVESGGGLVQAGGSLRLSCAASGRTFSSYAMGWFRQAPGKEREFVATISWSGGSTSYADSVKGRFTISRDNAKNTVYLQMNSLKPEDTAVYYCNAVTHHSDQDGGMDYWGKGTLVTVSS
# B7: Re5C01 (VHH)
# VHH: QVQLVESGGGLVQAGGSLRLSCGVSGRTFSSYAMGWFRQAPGKEREFVATISWSGGTTNYAHSVKGRFTISRDNAKNTVYLQMNSLKVEDTAVYYCYAVSSGSDYDGGMDYWGKGTQVTVSS
# B8: Re11F07 (VHH)
# VHH: QVQLVESGGGLVQAGGSLRLSCAASGRAFSSGTMGWFRQAPGKEREFVATISWSGGSTSYARSVKGRFTISGDNAENTVYLQMNSLKPEDTAVYYCYAVSSGSDYDGGMDYWGKGTLVTVSS
# B9: Re8A03 (VHH)
# VHH: QVQLVESGGGLVQPGGSLRLSCAASGRITGFNGMGWYRQTPGKQRELVASITNGGITKYADSVKGRFTISRDNAKNTVYLQMNSLKPEDTAVYLCYFWRPEFPNLYWGQGTQVTVSS
# B10: Re8A06 (VHH)
# VHH: QVQLVESGGGLVQAGGSLRLSCAASGSIFSINAMGWYRQAPGKERELVAAMGSSGWINYADSVKGRLTISRDNAKNTLYLQMNSLKPEDTAVYYCRGTGGVGPTSADYWGQGTQVTVSS
# B11: Re8E12 (VHH)
# VHH: QVQLVESGGGSVQPGGSLRLSCKVSGFTSDVDLRNYLVSWNRQAPGKERELVAAITPTVISGGNTNYADSVKGRFTISRDYSKSTVYLQMNSLNPEDTAVYYCKVGVYWGQGTQVTVSS
# B12: Re8F03 (VHH)
# VHH: B11 VHH with S11L, R19T, F27L, D30Y, N41Y, A44G, V59A, S61T, N64S, Y102S
# B13: Re9C07 (VHH)
# VHH: QVQLVESGGGLVQAGGSLRLSCAASGRTFSRYAMGWFRQAPGKEREFVAAITWNADTTYYADSVKGRFTISRDNAKNTVYLQMNSLKPEDTAVYYCAAGGNHYYSRSYYSSLEYDHWGQGTQVTVSS
# B14: Re9G05 (VHH)
# VHH: QVQLVESGGGLVQPGGSLRLSCAVSGNISSITAWDWHRQAPGKQRELVAHITSRGDTMYLDSVKGRFAISRDHAKNTLSLQMNSLKPEDTAVYYCYLRTFGPPYDYWGQGTQVTVSS
# B15: Re9G12 (VHH)
# VHH: QVQLVESGGGLVQAGGSLRLSCAASGRTFSSYVMGWFRQAPGKEREFVAHISWSGDSTYYADSVKGRFTIFRDNAKNTAYLQMNSLKPEDTAVYYCAADRGASYYYTWASEYNYWGQGTQVTVSS
# B16: Re11G09 (VHH)
# VHH: QVQLVESGGGLVHTGGSLRLSCAASGSIFNIYRMAWYRQAPGKQREKVAIITTYGLTDYADSVKGRFTISRDNAKNTTYLQMNSLKPDDTAVYYCNTDPPDLGPGYWGQGTQVTVSS
# B17: Re5D06R28D (VHH)
# VHH: QVQLVESGGGLVQPGGSLRLSCAISGSTLDYYAMGWFREAPGKEREGVARWRNNDGSTNYADSVKGRFTMSRDNAKDTYYLQMNSLEPEDTADYYCAYGPLTKYGDEWHWPYEYDYWGQGTQVTVSS
# B18: Re22D04 (VHH)
# VHH: QVQLVESGGGLVQTGGSLRLSCAASGRTFSDDAMGWFRQAPGKERDVVAALGWAGVSTYYADSVKGRFGISRDNAKNTVYLQMSSLKPEDTAVYYCAAAPSVAHARLGEWAYWGKGTQVTVSS
# Molecular target: SARS-CoV-2 spike protein (transiently expressed in transfected HeLa cells) (SARS-CoV-2, UniProt P0DTC2 14-1273)
# Assay: IF, spike-transfected HeLa cells
row,Binder,binding result
1,B1,binds
2,B2,binds
3,B3,binds
4,B4,binds
5,B5,binds
6,B6,binds
7,B7,binds
8,B8,binds
9,B9,binds
10,B10,binds
11,B11,binds
12,B12,binds
13,B13,binds
14,B14,binds
15,B15,binds
16,B16,binds
17,B17,binds
18,B18,binds

# Residue numbers refer to the chain shown, from its start.
